Pooled drug test results. Numbers come from NIAID ChemDB, via PubChem.

All rows: whole-cell or culture tests; species: Aspergillus flavus; endpoint: zone

Blank or dashed fields: not listed here.

smiles	method	strain or isolate	tested at	value
CN(C/C=C/C#CC(C)(C)C)Cc1cccc2ccccc12	agar diffusion	MTCC 277	200 µg/mL	24.78 mm
CCCCc1nc(Cl)c(-c2cc(-c3cccc(Br)n3)nc3c2C(=O)c2ccccc2-3)n1Cc1ccccc1	agar diffusion	MTCC 8188	10 µg/disc	9 mm
COc1cc(C2c3c(nc(N)c(C#N)c3N)Oc3[nH]c(=S)[nH]c(=O)c32)cc(OC)c1OC	agar diffusion / agar		10000 µg/mL	0 mm
COc1ccc(NCc2cc3cc(C)ccc3nc2Cl)cc1	agar diffusion	MTCC 277	200 µg/mL	10.4 mm
Nc1ccc(S(N)(=O)=O)cc1	agar diffusion / agar		25 µg/mL	22 mm
COc1cc(C2c3c(nc[nH]c3=O)Oc3[nH]c(=S)[nH]c(=O)c32)cc(OC)c1OC	agar diffusion / agar		10000 µg/mL	0 mm
CCCCc1nc(Cl)c(-c2cc(-c3ccc(Br)cc3)nc3c2C(=O)c2ccccc2-3)n1Cc1ccccc1	agar diffusion	MTCC 8188	10 µg/disc	7 mm
Cc1cc(O)c(C(=O)/C=C/c2ccc(O)cc2)c(=O)o1	agar diffusion		125 µg/disc	10 mm
[Al]#[P]	agar diffusion		1 mg/mL	32.42 mm
CCCCc1nc(Cl)c(-c2cc(-c3cccc4ccccc34)nc3c2C(=O)c2ccccc2-3)n1Cc1ccccc1	agar diffusion	MTCC 8188	10 µg/disc	5 mm
CCOC=C1C(=O)NC(=S)NC1=O	agar diffusion / agar		10000 µg/mL	0 mm
Cc1ccc2nc(Cl)c(CNCc3ccccc3)cc2c1	agar diffusion	MTCC 277	200 µg/mL	13.53 mm
NS(=O)(=O)c1ccc(NCc2ccc(O)c3ncccc23)cc1	agar		25 µg/mL	32 mm
Cc1cccc(NCc2cc3cc(C)ccc3nc2Cl)c1	agar diffusion	MTCC 277	200 µg/mL	6.1 mm
CCCCc1nc(Cl)c(-c2cc(-c3ccc([N+](=O)[O-])cc3)nc3c2C(=O)c2ccccc2-3)n1Cc1ccccc1	agar diffusion	MTCC 8188	10 µg/disc	6 mm

Again, the opening 2 rows:

smiles	method	strain or isolate	tested at	value
CN(C/C=C/C#CC(C)(C)C)Cc1cccc2ccccc12	agar diffusion	MTCC 277	200 µg/mL	24.78 mm
CCCCc1nc(Cl)c(-c2cc(-c3cccc(Br)n3)nc3c2C(=O)c2ccccc2-3)n1Cc1ccccc1	agar diffusion	MTCC 8188	10 µg/disc	9 mm

Zone: diameter of growth inhibition. Neighbouring rows are from separate reports.